We go through 1 compound from article PMC6537213, “Ellagic acid microspheres restrict the growth of Babesia and Theileria in vitro and Babesia microti in vivo” (Parasites & Vectors, 2019).

Assay in all cases: cytotoxicity assay (CCK-8)
Holding throughout (format): cell-based

The test system of data set [1] is Madin-Darby bovine kidney (MDBK) cell line. As to the method:
(§1) The MDBK cell line was maintained in 75 cm^2 culture flasks with Minimum Essential Medium Eagle (MEM; Gibco, Grand Island, NY, USA), while Dulbecco’s Modified Eagle’s Medium (DMEM; […] Each medium was supplemented with 10% fetal bovine serum, 0.5% penicillin/streptomycin (Gibco), and an additional 1% glutamine. Every 3 to 4 days, the medium was changed, and the cells were incubated until approximately 80% confluent. The cells were free from mycoplasma contamination after being checked by staining with 4,6-diamidino-2-phenylindole dihydrochloride (DAPI; Sigma-Aldrich, St. Louis). The cell detachment from the culture flask was done using TrypLE^TM Express (Gibco) after washing two times with Dulbecco’s phosphate-buffered saline (DPBS). Subsequently, viable cells were counted using a Neubauer Improved C-Chip (NanoEnTek Inc., Seoul, Korea) after staining with 0.4% trypan blue solution. The drug-exposure viability assay was performed in accordance with the recommendation for the Cell Counting Kit-8 (CCK-8; Dojindo, Kumamoto, Japan). Briefly, in a 96-well plate, 100 µl of cells at a density of 5 × 10^4 cells/ml were seeded per well and allowed to attach to the plate for 24 h at 37 °C in a humidified incubator with 5% CO2. Ten microliters of drug diluted two-fold were added to each well to a final concentration of 0.781 to 800 µM in triplicate. Wells with only a culture medium were used as blanks, while wells containing cells and a medium with 0.5% DMSO were used as positive controls. Drug exposure lasted for 24 h. After 24 h, 10 µl of CCK-8 was added, and the plate was further incubated for 3 h. Absorbance was measured at 450 nm using a microplate reader.

Data set [2] concerns human foreskin fibroblast (HFF) cell line. As to the method:
as §1

For data set [3], the system named is mouse embryonic fibroblast (NIH/3T3) cell line. On the procedure: as §1

Molecules are shown by their SMILES.

Turning to `CC(=O)NCC(=O)O.CC(=O)NCC(=O)O.N=C(N)c1ccc(N=NNc2ccc(C(=N)N)cc2)cc1` [DA, diminazene aceturate], the “Selective indices MDBK” value is “˃ 285.7” in data set [1] (EC50 MDBK / IC50 B. bovis), “˃ 4545” in data set [1] (EC50 MDBK / IC50 B. caballi), “˃ 232.5” in data set [1] (EC50 MDBK / IC50 B. divergens) and “˃ 476.2” in data set [1] (EC50 MDBK / IC50 T. equi). Moreover, the “Selective indices HFF” value in data set [2] (EC50 HFF / IC50 B. bovis) is “˃ 285.7”; in data set [2] (EC50 HFF / IC50 B. caballi), “˃ 4545”; in data set [2] (EC50 HFF / IC50 B. divergens), “˃ 232.5”; in data set [2] (EC50 HFF / IC50 T. equi), “˃ 476.2”. The “Selective indices NIH/3T3” value in data set [3] (EC50 NIH/3T3 / IC50 B. bovis) is given as “˃ 285.7”; in data set [3] (EC50 NIH/3T3 / IC50 B. caballi) it was “˃ 4545”; in data set [3] (EC50 NIH/3T3 / IC50 B. divergens), “˃ 232.5”; in data set [3] (EC50 NIH/3T3 / IC50 T. equi) it was “˃ 476.2”.
